Results as given in the supplement of paper PMC9931576.
Human monoclonal antibodies against the spike receptor-binding domain (heavy:light variable regions). IC50 against pseudoviruses bearing the spike of naturally observed variants; lower = stronger; >10 µg/ml means not reached at the top dose. No active / inactive call. The stated detection limit is 0.0005 µg/ml; values near or below 0.001 µg/ml lie at the floor of the assay.

B1: BD56-1666 (protein)
chain 1: QVQLQESGPGLVRPSGTLSLACAVSGASISSVNWWSWVRQPPGRGLEWIGRIYHSGSTTYNPSLRSRITMSVDKSRNHFSLTLTSVTAADTAVYYCAKVDDYRLNYFDYWGQGILVTVSS
chain 2: SYVLSQPPSVAVAPGQTARITCGGNNIGGKSVHWYQQKSGQAPVLVVSDDNDRPSGIPERFSGSNSGNTATLTISKVEAGDEADYYCQVWDSSSEHVVFGGGTKLTVL
B2: BD56-1682 (protein)
chain 1: QVQLVESGGGVVQPGKSLRLSCAASGFTFSGYAMHWVRQAPGKGLDWVAVISSDGSFKHSADSVKGRFTISRDNSQNMLYLQMNTLRPGDTALYYCATEGSDSSWYVYFDNWGQGALVTVSS
chain 2: DIQMTQSPSSLSASVGDRVTITCRASQTISSYLNWYQQKPGKAPKLLIFAASNLQTGVPSRFSGSGSGTDFTLTISSLQPEDFATYYCQQSYTTLSYTFGQGTRLEIK
B3: BD56-1680 (protein)
chain 1: QVQLVQSGAEVKKPGSSVKVSCKASGGTFSSDALSWVRQAPGQGLEWMGTIIPIFGTTNYAQKFRARITITTDDSTSTAYMELSSLKSEDTAMYYCAKDIVVGPLYGMDVWGQGTTVTVSS
chain 2: DIQMTQSPSSLSASVGDRVTITCRTSQSIGTFLNWYHQKPGKAPKLLIYGASSLESGVPSRFSGTGSGTDFTLTISSLQPEDFATYYCQQSYTARTFGQGTRVEVK
B4: BD56-1691 (protein)
chain 1: EVHLVESGGGLVQPDKSLRLSCAASGFPFDDYAMHWVRQAPGKGLEWVSGISWNGGVIGYADSVKGRCVISRDNAKNSLYLHMSSLRAEDTALYYCVKDMSGGDYQNYFDHWGQGTLVTVSS
chain 2: SYVLTQAPSVSVAPGRTARITCGGNYIGGKSVHWYQQRPGQAPVVVVYDNSDRPSGIPERFSGSRSGNTATLTISRVDAGDEADYYCQVWDSSRDLYVFGTGTKLTVL
B5: BD56-1657 (protein)
chain 1: EVQLVESGGGLVQPGRSLRLSCAASGLNFEDYAMHWVRQAPGKGLEWVSGISWNSGTIGYADSVQGRFIISRDNAKNSLYLQMIRLRPEDTALYYCAKDISAGNYPRPGERGPGFNIWGQGTMVTVSS
chain 2: QSALTQPASVSGSPGQSITISCTGTSSDVGGYNYVSWYQQHPGKAPKLMIYDVANRPSGVSNRFSGSKSGNTASLTISGLQAEDEADYFCTSYTSSSTVVFGGGTKLTVL
B6: BD56-1695 (protein)
chain 1: QVQLVQSGAAVKKPGSSVKVSCKASGGSFSSYTISWVRQAPGQGLEWMGKIIPFLGVANYAQRFQGRVTITADKSTSTVYMDLSSLRSEDTAVYYCARDRNGYFGAFDIWGQGTMVTVSA
chain 2: QSVLTQPPSVSGAPGQRVTISCTGNNSNIGAGYDVHWYQQFPGTAPKVVIYGNNNRPLGVPDRFSGSKSDTSASLAITGLQAEDEADYYCQSYDSSLSDVIFAGGTKLTVL

The binders below were run against SARS-CoV-2 Omicron BA.1 spike pseudovirus (assay: pseudovirus neutralization IC50; higher = weaker neutralization).
Procedure: (§1)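 Single-round VSV luciferase pseudovirus mixed with antibody dilutions for 1 h and put on Huh-7 cells for about a day; IC50 from the dose curve.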

Binder | pseudovirus neutralization IC50 [µg/mL]
B1 | > 10
B2 | > 10
B3 | 0.0153
B4 | 0.00672
B5 | 0.0228
B6 | 0.0771

These binders were tested against SARS-CoV-2 Omicron BA.2 spike pseudovirus in the same assay as above.
Procedure: as §1

Binder | pseudovirus neutralization IC50 [µg/mL]
B1 | > 10
B2 | > 10
B3 | 0.0173
B4 | 0.00762
B5 | 0.0348
B6 | 0.0443

Each binder was assayed against SARS-CoV-2 Omicron BA.2.75 spike pseudovirus in the same assay as above.
Procedure: as §1

Binder | pseudovirus neutralization IC50 [µg/mL]
B1 | > 10
B2 | > 10
B3 | 0.0409
B4 | 0.0133
B5 | 0.0337
B6 | 0.102

These binders were tested against SARS-CoV-2 Omicron BA.5 spike pseudovirus in the same assay as above.
Procedure: as §1

Binder | pseudovirus neutralization IC50 [µg/mL]
B1 | > 10
B2 | > 10
B3 | 1.26
B4 | 0.869
B5 | 1.29
B6 | 6.07

Each binder was assayed against SARS-CoV-2 Omicron BQ.1.1 spike pseudovirus in the same assay as above.
Procedure: as §1

Binder | pseudovirus neutralization IC50 [µg/mL]
B1 | > 10
B2 | > 10
B3 | > 10
B4 | > 10
B5 | > 10
B6 | > 10

Each binder was assayed against SARS-CoV-2 Omicron XBB spike pseudovirus in the same assay as above.
Procedure: as §1

Binder | pseudovirus neutralization IC50 [µg/mL]
B1 | > 10
B2 | > 10
B3 | 2.92
B4 | > 10
B5 | 3.62
B6 | > 10

What follows are binders tested against SARS-CoV-2 early D614G spike pseudovirus in the same assay as above.
Procedure: as §1

Binder | pseudovirus neutralization IC50 [µg/mL]
B1 | > 10
B2 | > 10
B3 | 0.0463
B4 | 0.0132
B5 | 0.0377
B6 | 0.0721
